## Share of PSTVd loop 15 variants by leaf site

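A pool of all variants was put on leaves of three Nicotiana benthamiana plants. Progeny were sequenced from the inoculated region (day 5), the margin of the inoculated leaf (day 10) and systemic leaves (day 12).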

The pool varies loop 15 of the PSTVd intermediate strain in the pattern GGAAACCGNNNNNNC; wild type is GGAAACCGCUACUAC (upper and lower strand joined, each 5' to 3', the first 7 letters being the upper strand, closing pairs included).

Numbers give reads per thousand; 0 = not seen among the reads, higher = more abundant.
Each value is the mean of three plants.
"Pool" is the share in the plasmid pool used as inoculum, on the same scale.
The inoculated region was read from the minus strand, the other sites from the plus strand.
IR is the inoculated region, LM the leaf margin, Sys the systemic leaves.

GGAAACCGCCUUUUC (pool 0.224) gave IR 0.0825; LM 0.00539; Sys 0.
GGAAACCGCGUAUUC (pool 0.176) gave IR 0.113; LM 0.0187; Sys 0.
GGAAACCGGCGAUAC (pool 0.320) gave IR 0.266; LM 0.0752; Sys 0.0616.
GGAAACCGUGGAUGC (pool 0.176) gave IR 0.0749; LM 0; Sys 0.
GGAAACCGCGCUCAC (pool 0.240) gave IR 0.0866; LM 0.00668; Sys 0.
GGAAACCGUUAGCUC (pool 0.208) gave IR 0.332; LM 0.137; Sys 0.0860.
GGAAACCGCAGGACC (pool 0.240) gave IR 0.111; LM 0.0128; Sys 0.00504.
GGAAACCGUUCAAAC (pool 0.272) gave IR 0.328; LM 0.0980; Sys 0.00537.
GGAAACCGCCGCGGC (pool 0.224) gave IR 0.144; LM 0; Sys 0.00537.
GGAAACCGUUGAUCC (pool 0.336) gave IR 0.121; LM 0.00539; Sys 0.
GGAAACCGUCCGGGC (pool 0.240) gave IR 0.324; LM 0.00539; Sys 0.
GGAAACCGAAUGAAC (pool 0.272) gave IR 0.160; LM 0.00539; Sys 0.
GGAAACCGCACAUGC (pool 0.144) gave IR 0.0848; LM 0.0134; Sys 0.
GGAAACCGCAAAUAC (pool 0.208) gave IR 0.303; LM 0.0590; Sys 0.0799.
GGAAACCGGUAGGUC (pool 0.224) gave IR 0.272; LM 0.116; Sys 0.0458.
GGAAACCGACAGUAC (pool 0.208) gave IR 0.331; LM 0.111; Sys 0.00537.
GGAAACCGUCUGACC (pool 0.224) gave IR 0.142; LM 0.0175; Sys 0.
GGAAACCGAUACGAC (pool 0.176) gave IR 0.0794; LM 0.0187; Sys 0.
GGAAACCGGCGGCGC (pool 0.160) gave IR 0.113; LM 0.0256; Sys 0.
GGAAACCGCCACCCC (pool 0.192) gave IR 0.108; LM 0.0141; Sys 0.
GGAAACCGCUCAUGC (pool 0.304) gave IR 0.124; LM 0.0134; Sys 0.
GGAAACCGGUUCUAC (pool 0.224) gave IR 0.0452; LM 0; Sys 0.00537.
GGAAACCGUACUUCC (pool 0.224) gave IR 0.119; LM 0.0128; Sys 0.
GGAAACCGACCGUGC (pool 0.240) gave IR 0.411; LM 0.134; Sys 0.00537.
GGAAACCGGACUGAC (pool 0.208) gave IR 0.0650; LM 0.0121; Sys 0.
GGAAACCGGCGAAUC (pool 0.208) gave IR 0.0226; LM 0.0141; Sys 0.0107.
GGAAACCGCCAUCAC (pool 0.304) gave IR 0.356; LM 0.126; Sys 0.0698.
GGAAACCGUCUUUGC (pool 0.256) gave IR 0.0931; LM 0; Sys 0.
GGAAACCGAGGCCUC (pool 0.128) gave IR 0.0796; LM 0; Sys 0.
GGAAACCGUGCUGAC (pool 0.304) gave IR 0.0985; LM 0.0195; Sys 0.00537.
GGAAACCGUUGUCCC (pool 0.208) gave IR 0.106; LM 0.0187; Sys 0.

A selection of 4 entries from above:

* GGAAACCGAUACGAC (pool 0.176) -> IR 0.0794; LM 0.0187; Sys 0
* GGAAACCGCCAUCAC (pool 0.304) -> IR 0.356; LM 0.126; Sys 0.0698
* GGAAACCGUCCGGGC (pool 0.240) -> IR 0.324; LM 0.00539; Sys 0
* GGAAACCGGUAGGUC (pool 0.224) -> IR 0.272; LM 0.116; Sys 0.0458

Samples held 43,870 to 66,106 reads, so the smallest values rest on one or two reads.
The authors trace changes outside the varied positions to PCR and sequencing errors or to mutation in the plant; presence does not show that a variant is infectious alone.
Wild type was 33.9 per thousand in the pool and the most common sequence in every sample (inoculated region 202, 200, 159; leaf margin 724, 746, 710; systemic leaves 856, 883, 880).

Values reported by Wu et al. 2024 (doi:10.1371/journal.ppat.1012142).